Pooled drug test results. Numbers come from NIAID ChemDB, via PubChem.

All rows: whole-cell or culture tests; species: Human cytomegalovirus; cells: HEL; read-out: EC50

ECn is the concentration giving n% inhibition of infection, replication or growth. Blank or dashed fields: not listed here. Conditions beyond the fields shown may differ between rows.

structure	strain	read by	result
Nc1nc2c(ncn2[C@@H]2C=C[C@H](CO)CC2)c(=O)[nH]1	DAVIS	plaque count	0.83 µg/mL
Nc1nc2c(ncn2COC(CO)CO)c(=O)[nH]1	AD169		7.5 µM
Nc1ncnc2c1ncn2[C@@H]1C[C@H](CO)[C@@H](O)[C@H]1O	AD-169 (100 PFU)	cytopathic effect	>100 µg/mL
Nc1nc2c(ncn2COC(CO)CO)c(=O)[nH]1	Ganciclovir- and HPMPC-resistant	plaque count	11.7 µg/mL
CC(C)COC(=O)C(O)Cn1cnc2c(N)ncnc21	DAVIS (100 PFU)	cytopathic effect	16 µg/mL
Nc1ccn(C[C@@H](CO)OCP(=O)(O)O)c(=O)n1	DAVIS	plaque count	0.1 µg/mL
O=C(O)Cc1cc(O)ccc1O	AD169	cytopathic effect	6.2 µg/mL
Nc1nc2c(ncn2[C@H]2C=C[C@@H](CO)CC2)c(=O)[nH]1	LY9990	plaque count	0.79 µg/mL
Cc1c(CC(=O)O)ccc(O)c1O	AD169	cytopathic effect	>25 µg/mL
C[C@H]1C[C@@H](n2cnc3c(N)ncnc32)[C@H](O)[C@@H]1O	DAVIS (100 PFU)	cytopathic effect	>100 µg/mL
OC[C@H]1O[C@@H](n2cnc3c(Cl)nccc32)C[C@@H]1O	DAVIS		>100 µM
O=C(O)c1cc(O)ccc1O	AD169	cytopathic effect	8 µg/mL
c1ccc(-c2ccccn2)nc1	AD169	plaque count	10.31 µg/mL
O=c1[nH]c(=O)n(C2CC(O)C(CO)O2)cc1/C=C/Br	DAVIS		>100 µM
O=C(O)Cc1ccc(O)c(O)c1	AD169	cytopathic effect	6.3 µg/mL
COC(=O)CN(CC(=O)OC)P(=O)(OC[C@H]1O[C@@H](n2cc(/C=C/Br)c(=O)[nH]c2=O)C[C@@H]1O)Oc1ccccc1	DAVIS		>100 µM
Nc1ncnc2c1ncn2[C@@H]1C=C[C@@H](O)[C@H]1O	DAVIS (20 PFU)	plaque count	1.7 µg/mL
Oc1cccc(O)c1O	DAVIS	cytopathic effect	7.8 µg/mL
COC(=O)CN(CC(=O)OC)P(=O)(OC[C@H]1O[C@@H](n2cnc3c(N)ccnc32)C[C@@H]1O)Oc1ccccc1	DAVIS		>100 µM

Repeating the first 2 entries:

structure | strain | read by | result
Nc1nc2c(ncn2[C@@H]2C=C[C@H](CO)CC2)c(=O)[nH]1 | DAVIS | plaque count | 0.83 µg/mL
Nc1nc2c(ncn2COC(CO)CO)c(=O)[nH]1 | AD169 |  | 7.5 µM